A mixed list of measured activities; the numbers were collected in NIAID ChemDB.

All rows: whole-cell or culture tests; organism: HIV-1; cells: MT-2; endpoint: EC50

Rows are shuffled and stem from different studies.

smiles | strain or isolate | mutations | read by | result
CC(C)C1=C2[C@H]3CC[C@@H]4[C@@]5(C)CC[C@H](OC(=O)[C@H]6C[C@@H](C(=O)O)C6(C)C)C(C)(C)[C@@H]5CC[C@@]4(C)[C@]3(C)CC[C@@]2(CCNC(=O)c2ccc(Cl)cc2OCCN(C)C)CC1=O | 92HT599 | - | p24 / ELISA | <1 µM
Cc1ccc(C(C)N2CCc3cc(-c4c(C)nc(C)c([C@H](OC(C)(C)C)C(=O)O)c4N4CCC(C)(C)CC4)ccc3C2)cc1F | NL4-3 | - | luciferase | ≤0.1 µM
COc1ccc(N(C)C(=O)[C@H](Cc2ccccc2)NC(=O)NS(=O)(=O)n2nc(CN)c3ccccc32)cc1 | NL4-3 | - | luciferase | 0.18 µM
O=C1Nc2ccc(Cl)cc2[C@@](C#CC2CC2)(C(F)(F)F)[C@H]1OCc1ccc(F)cc1 | RF | - | - | <0.112 µM
CC(C)C1=C2[C@H]3CC[C@@H]4[C@@]5(C)CC[C@H](OC(=O)[C@H]6C[C@@H](C(=O)O)C6(C)C)C(C)(C)[C@@H]5CC[C@@]4(C)[C@]3(C)CC[C@@]2(CC(=O)NCc2ncccn2)CC1=O | 92HT599 | - | p24 / ELISA | <1 µM
Cc1ccc(C(C)N2CCc3cc(-c4c(C)nc(C)c([C@H](OC(C)(C)C)C(=O)O)c4N4CCC(C)(C)CC4)ccc3C2)cc1C | NL4-3 | - | luciferase | ≤0.1 µM
Cc1cnn(CCOc2ccc(-c3cnc(C)c([C@H](OC(C)(C)C)C(=O)O)c3N3CCC(C)(C)CC3)nc2)c1 | NL4-3 | - | luminescence | 0.0056 µM
Cc1ncc(-c2ccc3c(c2)CCN(c2nccc(-c4cnccn4)n2)C3)c(N2CCC(C)(C)CC2)c1[C@H](OC(C)(C)C)C(=O)O | NL4-3 | - | luciferase | 0.002 µM
Cc1ncc(-c2ccc(O[C@@H](C)C3CCC3)nc2)c(N2CCC(C)(C)CC2)c1[C@H](OC(C)(C)C)C(=O)O | NL4-3 | - | luminescence | 0.007 µM
N#Cc1ccc(Oc2cc(Cl)ccc2Cl)c(OCc2ccncc2)c1 | IIIB | - | MTT | 1.8 µM
Cc1nc(C)c([C@H](OC(C)(C)C)C(=O)O)c(N2CCC(C)(C)CC2)c1-c1ccc2c(c1)CCN(Cc1cccc(C(F)(F)F)c1F)C2 | NL4-3 | - | luciferase | ≤0.1 µM
CCCCCCCCCCCCCC(=O)OC[C@H]1O[C@@H](n2cc(C)c(=O)[nH]c2=S)C[C@@H]1F | - | - | syncytia | ~0.05 µM
CC(C)C1=C2[C@H]3CC[C@@H]4[C@@]5(C)CC[C@H](OC(=O)[C@H]6C[C@@H](C(=O)O)C6(C)C)C(C)(C)[C@@H]5CC[C@@]4(C)[C@]3(C)CC[C@@]2([C@@H](O)CNC(=O)c2ccc(N3CCC(N4CCOCC4)CC3)cc2)CC1=O | 92HT599 | - | p24 / ELISA | <1 µM
Nc1n[nH]c2ccc(CN3C(=O)N(CC4CCC4)[C@H](Cc4ccccc4)[C@H](O)[C@@H](O)[C@H]3Cc3ccccc3)cc12 | RF | - | - | <0.018 µM
COC(=O)N[C@H]1C(=O)Nc2ccc(Cl)cc2[C@@]1(C#CC1CC1)C(F)(F)F | RF | - | - | <0.212 µM
COc1ccc(N(C)C(=O)[C@H](Cc2cc(F)cc(F)c2)NC(=O)NS(=O)(=O)N2C=CC[C@@H]2C(=O)N(C)C)cc1 | NL4-3 | - | luciferase | 0.97 µM
Cc1nc(C)c([C@H](OC(C)(C)C)C(=O)O)c(N2CCC(C)(C)CC2)c1-c1ccc2c(c1)CCN(c1cc(C3CCN(C(C)(C)O)CC3)ncc1F)C2 | NL4-3 | - | luciferase | 0.01 µM
Cc1cn([C@H]2C[C@H](F)[C@@H](CO)O2)c(=S)[nH]c1=O | - | - | syncytia | 0.5 µM
C=C1[C@H](CO)[C@@H](O)C[C@@H]1n1cnc2c(=O)[nH]c(N)nc21 | - | - | cytopathic effect / XTT | 9 µM
CC(C)C1=C2[C@H]3CC[C@@H]4[C@@]5(C)CC[C@H](OC(=O)[C@H]6C[C@@H](C(=O)O)C6(C)C)C(C)(C)[C@@H]5CC[C@@]4(C)[C@]3(C)CC[C@@]2(CC(=O)NCc2ccc(Cl)cc2O[C@@H]2CCOC2)CC1=O | 92HT599 | - | p24 / ELISA | <1 µM
Cc1cccc(C(F)(F)F)c1CN1CCc2cc(-c3c(C)nc(C)c([C@H](OC(C)(C)C)C(=O)O)c3N3CCC(C)(C)CC3)ccc2C1 | NL4-3 | - | luciferase | ≤0.1 µM
O=C1Nc2ccc(Cl)cc2[C@@](C#CC2CC2)(C(F)(F)F)[C@H]1OCc1ccccc1F | RF | - | - | <0.14 µM
CCCCCCN1C(=O)N(Cc2ccc3[nH]nc(N)c3c2)[C@H](Cc2ccccc2)[C@H](O)[C@@H](O)[C@H]1Cc1ccccc1 | RF | - | - | <0.756 µM
CC(C)C1=C2[C@H]3CC[C@@H]4[C@@]5(C)CC[C@H](OC(=O)[C@H]6C[C@@H](C(=O)O)C6(C)C)C(C)(C)[C@@H]5CC[C@@]4(C)[C@]3(C)CC[C@@]2(CCNC(=O)c2ccc(CN3CCS(=O)(=O)CC3)cc2)CC1=O | 92HT599 | - | p24 / ELISA | <1 µM
O=C1Nc2ccc(Cl)cc2[C@@](C#CC2CC2)(C(F)(F)F)[C@H]1OCc1cccc(F)c1 | RF | - | - | <0.201 µM
Cc1nc(C)c([C@H](OC(C)(C)C)C(=O)O)c(N2CCC(C)(C)CC2)c1-c1ccc2c(c1)CCN(C(C)c1cccc(C(F)(F)F)c1)C2 | NL4-3 | - | luciferase | ≤0.1 µM
CC(=O)N[C@H]1C(=O)Nc2ccc(Cl)cc2[C@@]1(C#CC1CC1)C(F)(F)F | RF | - | - | <0.917 µM
CC(C)C1=C2[C@H]3CC[C@@H]4[C@@]5(C)CC[C@H](OC(=O)[C@H]6C[C@@H](C(=O)O)C6(C)C)C(C)(C)[C@@H]5CC[C@@]4(C)[C@]3(C)CC[C@@]2([C@@H](O)CNCC(C)(C)NC(=O)c2ccc3ccccc3c2)CC1=O | 92HT599 | - | p24 / ELISA | <1 µM
Cc1ccc(C)n1-c1ccc(C(=O)O)c(O)c1 | IIIB X4 CLADE B | - | p24 | 1.04 µM
Cc1ccc(OCCNc2ccc(-c3cnc(C)c([C@H](OC(C)(C)C)C(=O)O)c3N3CCC(C)(C)CC3)nc2)c(C)c1 | NL4-3 | - | luminescence | 0.0008 µM
CC(C)C1=C2[C@H]3CC[C@@H]4[C@@]5(C)CC[C@H](OC(=O)[C@H]6C[C@@H](C(=O)O)C6(C)C)C(C)(C)[C@@H]5CC[C@@]4(C)[C@]3(C)CC[C@@]2([C@@H](O)CNCC(C)(C)NC(=O)c2ccc(Cl)cc2O[C@H]2CCOC2)CC1=O | 92HT599 | - | p24 / ELISA | <1 µM
Cc1nc(CN)c(-c2ccc3c(c2)CCN(c2ncnc4c2oc2ccccc24)C3)c(N2CCC(C)(C)CC2)c1[C@H](OC(C)(C)C)C(=O)O | NL4-3 | - | luciferase | 0.02 µM
Cc1cccc(C)c1OCCN(C)c1ccc(-c2cnc(C)c([C@H](OC(C)(C)C)C(=O)O)c2N2CCC(C)(C)CC2)cn1 | NL4-3 | - | luminescence | 0.0025 µM
Cc1nc(C)c([C@H](OC(C)(C)C)C(=O)O)c(N2CCC(C)(C)CC2)c1-c1ccc2c(c1)CCN(Cc1cccc(CC(F)(F)C(F)F)c1)C2 | NL4-3 | - | luciferase | ≤0.1 µM
Cc1ccc(OCCOc2ccc(-c3cnc(C)c([C@H](OC(C)(C)C)C(=O)O)c3N3CCC(C)(C)CC3)cn2)cc1F | NL4-3 | - | luminescence | 0.0059 µM
Cc1nc(N)c(-c2ccc3c(c2)CCN(c2nccc(-c4cnccn4)n2)C3)c(N2CCC(C)(C)CC2)c1[C@H](OC(C)(C)C)C(=O)O | NL4-3 | - | luciferase | 0.003 µM
CN(C(=O)[C@H](Cc1cc(F)cc(F)c1)NC(=O)NS(=O)(=O)N1CCc2cccnc21)c1ccc(OC(F)(F)F)nc1 | NL4-3 | - | luciferase | 0.06 µM
O=C1Nc2ccc(Cl)cc2[C@@](C#CC2CC2)(C(F)(F)F)[C@H]1NCc1ccccc1 | RF | - | - | <0.218 µM
Nc1n[nH]c2ccc(CN3C(=O)N(Cc4ccc5[nH]nc(N)c5c4)[C@H](Cc4ccccc4)[C@H](O)[C@@H](O)[C@H]3Cc3ccccc3)cc12 | RF | - | - | <2.76 µM
Cc1ncc(-c2ccc(NCCOc3cc(F)cc(F)c3)cn2)c(N2CCC(C)(C)CC2)c1[C@H](OC(C)(C)C)C(=O)O | NL4-3 | - | luminescence | 0.0079 µM
CN(C)C(=O)[C@H]1CC=CN1S(=O)(=O)NC(=O)N[C@@H](Cc1cc(F)cc(F)c1)C(=O)N(C)c1ccc2scnc2c1 | NL4-3 | - | luciferase | 0.31 µM
COc1ccnc2[nH]cc(C(=O)C(=O)N3CCN(C(=O)c4ccccc4)C[C@H]3C)c12 | NL4-3 (gp120 R350K M475I) Recombinant | GP120-R350K M475I | RT activity | 1.028 µM

The last 2 rows once more:

| smiles | strain or isolate | mutations | read by | result |
|---|---|---|---|---|
| CN(C)C(=O)[C@H]1CC=CN1S(=O)(=O)NC(=O)N[C@@H](Cc1cc(F)cc(F)c1)C(=O)N(C)c1ccc2scnc2c1 | NL4-3 | - | luciferase | 0.31 µM |
| COc1ccnc2[nH]cc(C(=O)C(=O)N3CCN(C(=O)c4ccccc4)C[C@H]3C)c12 | NL4-3 (gp120 R350K M475I) Recombinant | GP120-R350K M475I | RT activity | 1.028 µM |

ECn: concentration that inhibits the pathogen or its effect by n%. An empty or dashed field is not shown.